This data set addresses N protein (unphosphorylated, lambda-phosphatase treated) (SARS-CoV-2 (isolate Wuhan-Hu-1)) (UniProt P0DTC9). Put plainly: competition (BLI). The conditions noted are these: recombinant protein; residues 1-419; protein details: His6-MBP tag cleaved (3C), linker remnant possible.

The exact form of at least one protein or probe is not confirmed. At least one verdict was read from the data and is not stated in words by the source.

Consider “TACAGATCTACTAGTGATCTATGACTGATCTGTACATGATCTACA (double strand) [45-bp DNA (ISD)]”, for which the binding result is “binds”.
